{"source": "paper PMC7605563", "target": "Recombinant SARS-CoV-2 S1-614G with polyhistidine-tag (SARS-CoV-2)", "experiment": "BLI"}
{"substance": "Recombinant hACE2 protein (from UniProt Q9BYF1) (receptor)", "values": [{"measurement": "Kd", "result": 1.65, "unit": "nM"}]}
